The source's definition of the ratio is not given here.

Data set [1] has as its system DENV2 replicon-expressing BHK21 cells. The data set is described as follows: DENV2 replicon assay (Renilla luciferase). The class given is cell-based. The source says:
(§1) The efficacy of the compounds was also examined in cell-based assays performed in mammalian cells. Mammalian cells are the host for replication of the virus; a compound added to the growth medium of the mammalian cell in which a replicon RNA or dengue virus is replicating, the compound of interest could permeate the cell and interfere with the replication process. If there is a quantitative read-out of replication efficiency, the potency of the inhibitor compound could be evaluated in a quantifiable manner. There are two types of quantifiable assays available both employing mammalian cells; the first is the Baby Hamster Kidney (BHK) or monkey kidney (Vero) cells harboring DENV-2 or WNV replicon RNA, respectively, in a continuously replicating state and these are “stable replicon-expressing” cells. […] The inhibition of infectivity of the virus by the compound is measured by the extent of reduction of the titer of virus determined by plaque assay.
(§2) Both drug efficacy and cytotoxicity were measured using the same experimental plate. […] Cells were then washed with PBS and the luminescence signal from Renilla luciferase activity was read using the Renilla luciferase assay kit (Promega Corp; Fitchburg, Wis.) using a luminometer (Berthold Technologies, Inc.; Oak Ridge, Tenn.). […] The EC50 and CC50 values of selected compounds were calculated similar to IC50s using GraphPad Prism v5. […]

Data set [2] concerns WNV replicon-expressing Vero cells. The experiment in a line: WNV replicon assay (Renilla luciferase). The class given is cell-based.
Text: as §1, §2

For the compound `Cc1ccc(C2=NC(=O)/C(=C/c3cc(O)c(O)c(Br)c3)S2)cc1` [Compound III], the “Therapeutic index (TI)” value in data set [1] came to 56; in data set [2] it was 35.
For the compound `CCOC(=O)c1oc2c(O)c(O)ccc2c(=O)c1-c1cnn(-c2ccccc2)c1` [Compound V], the “Therapeutic index (TI)” value in data set [1] and in data set [2] was 17 in each case.
